# Results: patent US11331370B2, “Combination product for the prevention of sexually transmitted infections” (priority 2014, dated 2022)
# System: HIV-192BR014
# Test: Anti-HIV combination activity in activated PBMCs, p24 ELISA, Chou-Talalay
# Assay type: cell-based
# Details: PBMC, HIV-1 92BR014
row,Compound,"m, slope of the median-effect plot"
1,"CC(=O)[O-].CC(=O)[O-].[Zn+2] [ZA, zinc acetate]",2.655
2,Griffithsin [GRFT],2.784
